Measured values from several laboratories, pooled; numbers as filed in NIAID ChemDB.

All rows: host cell toxicity; cell line: MT-4; endpoint: CC50

CCn: concentration that lowers growth or viability of the cells by n%. An empty or dashed field is not shown. Lines come from different laboratories, so protocols vary. a–b is a range or a potency band.

| smiles | read by | value |
|---|---|---|
| c1cc(CNCCCN2CCCCC2)ccc1CCNCCCN1CCCCC1 | MTT | >62.4 µM |
| CC(C)OP(=O)(COCC1(Cn2cnc3c(N)ncnc32)CC=CC1)OC(C)C |  | >100 µg/mL |
| CC(C)Nc1cccnc1N1CCN(C(=O)c2cc3cc(NS(C)(=O)=O)ccc3[nH]2)CC1 | MTT | >20 µM |
| Cc1nc(CCCCCC(=O)c2ccccc2)n2nc(Cl)ccc12 |  | 250 µM |
| CCc1c(CC2CCCCC2)nc(SCC(=O)c2ccccc2)[nH]c1=O | MTT | 263 µM |
| CC(C)=CCN1C(=O)Nc2ccc(Cl)cc2S1(=O)=O |  | 133 µM |
| CCCCCCCCCCCC(=O)O[C@@]12C[C@@H](C)[C@]34C=C(C)[C@H](OC(=O)c5ccccc5)[C@@]3(O)[C@H](O)C(CO)=C[C@H](C4=O)[C@@H]1C2(C)C | MTT | 4.51 µg/mL |
| Cc1cc(O)c(C(c2cccc(NS(=O)(=O)c3cn(C)cn3)c2)C2CC2)c(=O)o1 |  | >30 µM |
| CC(=O)SCCOP(=O)(OCCSC(C)=O)OC[C@@H]1CC[C@H](n2cnc3c(N)ncnc32)O1 |  | 16 µM |
| C=C1[C@H](CO)[C@@H](O)C[C@@H]1n1cnc2c(=O)[nH]c(N)nc21 | MTT | 27.78 µM |
| CC1(C)S[C@H]([C@H](NC(=O)Cc2ccccc2)C(=O)NCc2ccccn2)N[C@H]1C(=O)NCCNC(=O)[C@@H]1N[C@@H]([C@H](NC(=O)Cc2ccccc2)C(=O)NCc2ccccn2)SC1(C)C |  | >100 µM |
| Nc1ccn([C@@H]2CC(CO)(CO)CS2)c(=O)n1 |  | >100 µg/mL |
| C1CNCCNCC(C2CNCCNCCCNCCNC2)CNCCNC1 |  | 58 µg/mL |
| O=S1(=O)N=Cc2cccn2-c2ccc(Cl)cc21 |  | 7.1 µM |
| Nc1nc(N)c2ncn(CC(CO)OCP(=O)(O)O)c2n1 |  | 59–168 µM |
| CC(C)=CCN1C(C)C(=O)Nc2ccc(Cl)cc2S1(=O)=O |  | >200 µM |
| Cc1nc(CCCCCCC(=O)c2ccccc2)n2nc(N3CCCC3)ccc12 |  | <0.03 µM |
| Nc1ncnc2c1ncn2CCOCP(=O)(O)O |  | 21–185 µM |
| CCN(CC)CC(O)CNc1c2ccc(Cl)cc2nc2ccc(OC)cc12 | MTT | 1.7 µM |
| CCCCCCCCCCCC(=O)O[C@@]12C[C@@H](C)[C@]34C=C(C)[C@H](O)[C@@]3(O)[C@H](O)C(COCc3ccccc3)=C[C@H](C4=O)[C@@H]1C2(C)C | MTT | 9.5 µg/mL |
| COc1ccc(-c2cc(C)c(Nc3ccnc(Nc4ccc(C#N)cc4)n3)c(C)c2)cc1 | MTT | 2.08 µM |
| CN1CCN(CCCNCCc2ccc(CCNCCCN3CCN(C)CC3)cc2)CC1 | MTT | 81.02 µM |
| Cc1cn(CC2(COCP(=O)(OC(C)C)OC(C)C)CC=CC2)c(=O)[nH]c1=O |  | >100 µg/mL |
| Cc1nc(CCCCCCC(=O)c2ccccc2)n2nc(-n3nccn3)ccc12 |  | 260 µM |
| Nc1nc2c(ncn2CC(CO)OCP(=O)(O)O)c(=O)[nH]1 |  | 59–168 µM |
| O=c1oc(C(CC2CC2)CC2CC2)cc(O)c1C(c1cccc(NS(=O)(=O)c2ccc(F)cc2)c1)C1CC1 |  | >30 µM |
| COc1ccc2nc3cc(Cl)ccc3c(N3CCN(c4ccccc4)CC3)c2c1 | MTT | >100 µM |
| c1cc(CCNCCN2CCOCC2)ccc1CCNCCN1CCOCC1 | MTT | >320.1 µM |
| COc1ccc2c(O)c(C(c3cccc(NS(=O)(=O)c4cccc5cccnc45)c3)C3CC3)c(=O)oc2c1 |  | >30 µM |
| COc1ccc2nc3cc(Cl)ccc3c(NC(CO)C(C)C)c2c1 | MTT | 0.7 µM |
| CCc1c(CCC2CCCCC2)nc(SCC(=O)c2ccc(O)cc2)[nH]c1=O | MTT | 132 µM |
| CCC(Cc1ccccc1)c1cc(O)c(C(c2cccc(NS(=O)(=O)c3cccnc3)c2)C2CC2)c(=O)o1 |  | >30 µM |
| O=C1c2cccn2-c2ccc(Cl)cc2S(=O)(=O)N1C1CCCC1 |  | 66.6 µM |
| CCCCCCCCCCCC(=O)O[C@@]12C[C@@H](C)[C@]34C=C(C)[C@@H]5OC(=O)O[C@@]53[C@H](O)C(COC(=O)OC)=C[C@H](C4=O)[C@@H]1C2(C)C | MTT | 8.9 µg/mL |
| C1CNCCNCCCNCCNC1 |  | >100 µM |
| Nc1nc(N)c2ncn(CCOCP(=O)(O)O)c2n1 |  | 21–185 µM |
| Cc1cn([C@@H]2O[C@@H]3[C@H](O)CO[C@]3(CO)[C@H]2O)c(=O)[nH]c1=O |  | >100 µM |
| Cc1cn([C@@H]2CC(CO)(CO)CS2)c(=O)[nH]c1=O |  | >100 µg/mL |
| CC1(C)S[C@H]([C@H](NC(=O)Cc2ccccc2)C(N)=O)N[C@H]1C(=O)NCCNC(=O)[C@@H]1N[C@@H]([C@H](NC(=O)Cc2ccccc2)C(N)=O)SC1(C)C |  | >100 µM |
| CC1CCCCN1CCCNCCc1ccc(CCNCCCN2CCCCC2C)cc1 | MTT | 117 µM |
| Cc1cn([C@H]2C[C@H](N=[N+]=[N-])[C@@H](CO)O2)c(=O)[nH]c1=O |  | >100 µM |
| CCc1c(C(C)CC2CCCCC2)nc(SCC(=O)c2ccccc2)[nH]c1=O | MTT | 32 µM |
| O=C(Cc1ccc(CC(=O)NCCCN2CCCCC2)cc1)NCCCN1CCCCC1 | MTT | >282 µM |
| C1CNCCNCCCN(CCCN2CCCNCCNCCCNCC2)CCNC1 |  | >100 µM |
| Cc1cc(C)cc(C(=O)c2cccnc2Nc2ccc(C(F)(F)F)cc2)c1 | MTT | 106 µM |
| CC(CC1CCCCC1)c1cc(=O)[nH]c(SCC(=O)c2ccc(O)cc2)n1 | MTT | 31 µM |
| CCCCCCCCCCCC(=O)O[C@H]1C(C)=C[C@]23C(=O)[C@@H](C=C(CO)[C@@H](O)[C@]12O)[C@@H]1C(C)(C)[C@]1(OC(=O)CCCCCCCCCCC)C[C@H]3C | MTT | 65.8 µg/mL |
| Nc1ncnc2c1ncn2C[C@@H](CO)OCP(=O)(O)O |  | 59–168 µM |
| NCCCCCCN1CCCN(CCCCCCN)CCCN(CCCCCCN)CCN(CCCCCCN)CCC1 |  | 50 µM |
| Cc1nc(CCCCCC(=O)Cc2ccccc2)n2nc(Cl)ccc12 |  | 28 µM |
| CC1CCCCN1CCCNC(=O)Cc1ccc(CC(=O)NCCCN2CCCCC2C)cc1 | MTT | >266 µM |
| COc1ccc2nc3cc(Cl)ccc3c(N3CCC(O)CC3)c2c1 | MTT | 6.2 µM |
| Cc1nc(CCCCCCC(=O)c2ccccc2)n2nc(-n3cnnc3)ccc12 |  | 260 µM |
| CC1(C)S[C@H]([C@H](NC(=O)Cc2ccccc2)C(=O)N2CCCCC2)N[C@H]1C(=O)NCCNC(=O)[C@@H]1N[C@@H]([C@H](NC(=O)Cc2ccccc2)C(=O)N2CCCCC2)SC1(C)C |  | >100 µM |
| Cc1cc(C)cc(C(=Nc2ccc(C(N)=O)cc2)c2cccnc2Cl)c1 | MTT | 34.01 µM |
| CCS(=O)(=O)C[C@H]1O[C@@H](n2cc(C)c(=O)[nH]c2=O)C[C@@H]1N=[N+]=[N-] |  | 4.4 µg/mL |
| C1CNCCNCCCN[C@@H]([C@H]2CNCCCNCCNCCCN2)CNC1 |  | 172 µg/mL |
| N#Cc1ccc(S(=O)(=O)Nc2cccc(C(c3c(O)cc(C(CC4CC4)CC4CC4)oc3=O)C3CC3)c2)cc1 |  | >30 µM |
| CCc1nc([N+](=O)[O-])c(N2CCN(C(=O)CNCCCCCCn3c(=O)c(C)cn([C@H]4C[C@H](N=[N+]=[N-])[C@@H](CO)O4)c3=O)CC2)n1Cc1ccccc1 |  | 54.2 µg/mL |
| COc1ccc2c(C)nc(CCCCCCC(=O)c3ccccc3)n2n1 |  | 250 µM |
| CC1(C)S[C@H]([C@H](NC(=O)Cc2ccccc2)C(=O)NCC(F)(F)F)N[C@H]1C(=O)NCCNC(=O)[C@@H]1N[C@@H]([C@H](NC(=O)Cc2ccccc2)C(=O)NCC(F)(F)F)SC1(C)C |  | >100 µM |
| COc1ccc2nc3cc(Cl)ccc3c(N[C@H]3CCCN4CCCC[C@H]34)c2c1 | MTT | 6.4 µM |
| COC(=O)[C@@H](NC(=O)Cc1ccccc1)[C@@H]1N[C@@H](C(=O)NCCNC(=O)[C@@H]2N[C@@H]([C@H](NC(=O)Cc3ccccc3)C(=O)OC)SC2(C)C)C(C)(C)S1 |  | >100 µM |
| O=S1(=O)NC(c2c(Cl)cccc2Cl)c2cccn2-c2ccc(Cl)cc21 |  | >200 µM |
| COc1ccc2nc3cc(Cl)ccc3c(NCCO)c2c1 | MTT | 1.8 µM |
| Cc1cc(C)cc(C(=O)c2cccnc2Nc2cnccn2)c1 | MTT | 240 µM |
| NCCCCN1CCCN(CCCCN)CCCN(CCCCN)CCN(CCCCN)CCC1 |  | 10 µM |
| CCN1C(=O)Nc2ccc(Cl)cc2S1(=O)=O |  | 200 µM |
| Cc1cc(C)cc(C(=O)c2cccnc2Nc2cccnc2)c1 | MTT | 41.63 µM |

For reference, 7 entries again:

smiles,read by,value
Cc1cn([C@H]2C[C@H](N=[N+]=[N-])[C@@H](CO)O2)c(=O)[nH]c1=O,,>100 µM
CCCCCCCCCCCC(=O)O[C@H]1C(C)=C[C@]23C(=O)[C@@H](C=C(CO)[C@@H](O)[C@]12O)[C@@H]1C(C)(C)[C@]1(OC(=O)CCCCCCCCCCC)C[C@H]3C,MTT,65.8 µg/mL
CC(C)Nc1cccnc1N1CCN(C(=O)c2cc3cc(NS(C)(=O)=O)ccc3[nH]2)CC1,MTT,>20 µM
CC1(C)S[C@H]([C@H](NC(=O)Cc2ccccc2)C(=O)N2CCCCC2)N[C@H]1C(=O)NCCNC(=O)[C@@H]1N[C@@H]([C@H](NC(=O)Cc2ccccc2)C(=O)N2CCCCC2)SC1(C)C,,>100 µM
CC1(C)S[C@H]([C@H](NC(=O)Cc2ccccc2)C(=O)NCC(F)(F)F)N[C@H]1C(=O)NCCNC(=O)[C@@H]1N[C@@H]([C@H](NC(=O)Cc2ccccc2)C(=O)NCC(F)(F)F)SC1(C)C,,>100 µM
CC1(C)S[C@H]([C@H](NC(=O)Cc2ccccc2)C(=O)NCc2ccccn2)N[C@H]1C(=O)NCCNC(=O)[C@@H]1N[C@@H]([C@H](NC(=O)Cc2ccccc2)C(=O)NCc2ccccn2)SC1(C)C,,>100 µM
COc1ccc(-c2cc(C)c(Nc3ccnc(Nc4ccc(C#N)cc4)n3)c(C)c2)cc1,MTT,2.08 µM